Source: patent US7345026B2, “Hybrid or chimeric polynucleotides, proteins, and compositions comprising hepatitis B virus sequences” (Institut Pasteur, priority 1999, dated 2008)

How the values were obtained:
[1] = test system: HHD-transfected RMA-S cells loaded with relevant peptides; assay: CTL responses of HHD mice injected s.c. with peptide in IFA (51Cr-release assay); format: in vivo; settings: peptide s.c. in IFA 7 days before, responder = at least 10% specific lysis
[2] = test system: HHD-transfected RMA-S target cells loaded with relevant peptides; assay: CTL responses of HHD mice co-immunized in IFA with HBVc.128 helper peptide; format: in vivo
[3] = test system: HHD-transfected RMA-S cells loaded with relevant peptides; settings: A2A2Kb mice; peptide s.c. in IFA 7 days before; responder = at least 10% specific lysis
[4] = test system: peptide-loaded HHD-transfected RMA-S cells; settings: HHD mice injected with pCMV-B10 DNA encoding the 10-epitope melanoma polyepitope; restimulation by each epitopic peptide

## FLWGPRALV
[1]
  R/T (responder versus tested mice): 1/6
[2]; CD8 epitopic (50 μg) and HBVc.128 helper (140 μg) peptides s.c. in IFA 7 days before
  R/T (responder versus tested mice): 6/6
[2]; co-injected with HBVc.128 helper peptide, compared with peptide alone
  CTL response when co-injected with helper peptide (in words): good CTL responses in a large proportion of mice
[3]
  R/T (responder versus tested mice): 0/6
[4]
  CTL response against the epitope after polyepitope immunization (in words): No specific lysis

Where two headings read alike, the source gives them in different places.
